PMC11542851 (PLOS Pathogens, 2024)

B1: C68.83 (antibody, V domains shown)
VH: EVQLVESGGGVVQPGRSLRLSCAASGFIFSSYGMHWVRQAPGKGLEWVAVIWYDGSNKYYADSVKGRFTISRDNSKNTLYLQMNSLRAEDTAVYYCARDDPEVGCSGGSCYYYYDMDVWGQGTTVTVSS
VL: SYELTQPPSVSVSPGQTARITCSGDALPKQHAHWYQQKPGQAPVLVIYKDIERPSGIPERFSGSSSGTTVTLTISGVQAEDEADYYCQSADSSVTYVVFGGGTKLTVL
B2: C68.88 (antibody, V domains shown)
VH: QVQLQESGPGLVKPSETLSLTCSVSGGPISSSRYYWGWIRQSPGEGLEWIGTIYYSGSTYYNPSFKSRVTISVDTSKNQFSLKLSSVTAADTAVYYCATRCYDFWSGYYNREMLWFDCWGQGTLVTVSS
VL: NFMLTQPHSVSESPGKTVTISCTRSSGSIASNYVQWYQQRPGSSPTTVIYENNQTPSGVPDRFSGSIDSSSNSASLTISGLKTEDEADYYCQSYDSSVVVFGGGTKLTVL
B3: C68.121 (antibody, V domains shown)
VH: EVQLVESGGGLVKPGGSLRLSCAASGFTFSDYYMTWIRQAPGKGLEWVSKITNSNSYTHYADSVKGRFTISRDNAKNSLFLHMNSLRAEDTAVYYCARAIWIGYPDDYYMDVWGKGTTVTVSS
VL: SYELTQPPSVSVSPGQTARITCSGDTLPNQYVYWYQQKPGQAPVLLIYKDTERPSGIPERVSGSTSGTTVTLTISGVQAEDEADYYCQSADSSGTSFGGGTKLTVL
B4: C68.175 (antibody, V domains shown)
VH: EVQLLESGGGLVQPGGSLRLSCAASGFTFSSYAMSWVRQAPGKGLEWVSGISGSGGSTYYADSVKGRFTISRDNSKNTLHLQMNSLRAEDTAVYYCAKGSRWNPDYFDYWGQGTLVTVSS
VL: not shown
B5: C68.183 (antibody, V domains shown)
VH: EVQLLESGGGLVQPGGSLRLSCVASGFTFRNFAMSWVRQAPGKGLEWVSAISGSGDSTYYADSVKGRFTISRDNSKNTLYLQVNSLRVEDTAIYYCAKGSRGSTDYFDSWGQGTLVTVSS
VL: not shown
B6: C68.185 (antibody, V domains shown)
VH: QVQLVQSGAEVKKPGASVKVSCKTSGYAFTDHYVHWVRQAPGQGLEWMGVINPSGVGTSYAQMFQDRVTLTSDTSTSTVYMVLSSLRSEDTAVYYCVRDDYGVPARGWFDPWGQGTLVTVSS
VL: EVVLTQSPATLSLSPGERATLSCRASQSISSYLAWYQQKPGQAPRLLIYDASNRATGVPARFSGSGSGADFTLTISSLEAEDFALYYCQHRSNWLYTFGQGTKLEIK
B7: C68.200 (antibody, V domains shown)
VH: EVQLLESGGGLVQPGGSLRLSCTASGFTFSRYALTWVRQAPGKGLEWVSAISGSGGNTNYADSVKGRFTISRDNSKNTLYLQMNSLRAEDTAVYYCAKSPRYNNDYFDFWGQGTLVTVSS
VL: DIQLTQSPSTLSASVGDRVTITCRASQSISSWLAWYQQKPGKAPKLLIYDASSLESGVPSRFSGSGSGTEFTLTISSLQPDDFATYYCQQYNTFITFGHGTRLEIK
B8: C68.203 (antibody, V domains shown)
VH: EVQLLESGGGLVQPGGSLRLSCTASGFTFSRYALTWVRQAPGKGLECVSAFSGSGDSTYYADSVKGRFTISRDNSKNTLYLQMNSLRAEDTAVYYCAKSPRYNSDYFDFWGQGTLVTVSS
VL: DIQLTQSPSTLSASVGDRVTITCRASQSISSWLAWYQQKPGKAPKLLIYDASSLESGVPSRFSGSGSGTEFTLTISSLQPDDFATYYCQQYNSFITFGQGTRLEIK
B9: C68.239 (antibody, V domains shown)
VH: EVQLLESGGGLVQPGGSLRLSCAASGFTFSSYAMSWVRQAPGKGLEWVSAISGGGDNTYYADSVKGRFTISRDNSKNTLYLQMNSLRAEDTAVYFCAKNPITVVPAAWDRGYFDLWGRGTLVTVSS
VL: SYELTQPPSVSVAPRKTARITCGGNNIGSYSVHWYQQRPGQAPVLVVHDDSDRPSGIPERFSGSNSGNTATLTISRVEAGDEADYYCQVWDSSSDHRGVFGGGTKLTVL
B10: C68.327 (antibody, V domains shown)
VH: EVQLLESGGGLVQPGGSLRLSCAASGFTFGSYAMSWVRQAPGKGLEWVSAISGSGGSTYYADSVKGRFTISRDNSKNTLYLQMNSLRAEDTAVYNCAKDLWDGFHWFDSWGQGTLVTVSS
VL: DIQMTQSPSSVSASVGDRVTITCRASQGISSWLAWYQQKPGKAPNLLIYSASSLQSGVPSRFSGSGSGTDFTLTISSLQPEDFATYYCQQANSFPITFGQGTRLEIK
B11: C68.348 (antibody, V domains shown)
VH: QVQLQESGPRLVKSSGTLSLTCAVSGGSISSSKWWSWVRQPPGKGLEWIGEVYHGGSTNYNPSLKSRVTISVDKAKNQFSLKLSSVTAADSAVYYCASLDSAAVFDYWGQGTLVTVSS
VL: QSALTQPASVSGSPGQSITISCTGTSSDVGRFNYVSWYQQHPGKAPKLLIYDVSNRPSGVSNRFSGSKSGNTASLTISGLQAEDEADYYCNSYTSSSTLYVFGTGTKVTVL

The binders below were run against T1, SARS-CoV-1 recombinant spike protein (trimer), CUHK-W1 strain (SARS-CoV-1 CUHK-W1, UniProt P59594, strain) (assay: ELISA).
T1 construct: source: bought: Acro Biosystems

Binder | binding result
B1 | binds
B2 | binds
B3 | binds
B4 | binds
B5 | binds
B6 | binds
B7 | binds
B8 | binds
B9 | binds
B10 | binds
B11 | binds

Each binder was assayed against SARS-CoV-2 Wuhan-Hu-1 RBD, yeast-displayed (SARS-CoV-2 Wuhan-Hu-1, UniProt P0DTC2) (assay: flow cytometry on cells).

Binder | binding result
B2 | binds
B9 | binds
